For the series, the system named is BDNF. Briefly: BDNF in plasma, urine, saliva and nasal mucus. Further details: species or system human.

For 1 molecule, BDNF and BDNF/PROTEIN results are on record in US8293489B2, “Methods for detection of biological substances” (priority 2007, dated 2012).

B1: BDNF (protein, UniProt P23560 19-247, looked up)
Neurotrophic factor BDNF …: APMKEANIRGQGGLAYPGVRTHGTLESVNGPKAGSRGLTSLADTFEHVIEELLDEDQKVRPNEENNKDADLYTSRVMLSSQVPLEPPLLFLLEEYKNYLDAANMSMRVRRHSDPARRGELSVCDSISEWVTAADKKTAVDMSGGTVTVLEKVPVSKGQLKQYFYETKCNPMGYTKEGCRGIDKRHWNSQCRTTQSYVRALTMDSKKRIGWRFIRIDTSCVCTLTIKRGR
Regarding B1, the BDNF was found to be 11 ± 7 µg/mL (NASAL MUCUS); 3391 ± 530 µg/mL (PLASMA, (20) subjects); 0 µg/mL (SALIVA); 0 µg/mL (URINE). Besides, the BDNF/PROTEIN was found to be 8 ± 6 (NASAL MUCUS) and 447 ± 74 (PLASMA).
